Measured values taken from the supplement of paper PMC9931576.
Human monoclonal antibodies against the spike receptor-binding domain (heavy:light variable regions). IC50 against pseudoviruses bearing the spike of naturally observed variants; lower = stronger; >10 µg/ml means not reached at the top dose. No active / inactive call. The stated detection limit is 0.0005 µg/ml; values near or below 0.001 µg/ml lie at the floor of the assay.

Experiments:
Assay in all cases: pseudovirus neutralization IC50; higher = weaker neutralization
[1] = target: SARS-CoV-2 Omicron BA.1 spike pseudovirus
Protocol: (§1)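 Single-round VSV luciferase pseudovirus mixed with antibody dilutions for 1 h and put on Huh-7 cells for about a day; IC50 from the dose curve.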

[2] = target: SARS-CoV-2 Omicron BA.2 spike pseudovirus
Protocol: as §1

[3] = target: SARS-CoV-2 Omicron BA.2.75 spike pseudovirus
Protocol: as §1

[4] = target: SARS-CoV-2 Omicron BA.5 spike pseudovirus
Protocol: as §1

[5] = target: SARS-CoV-2 Omicron BQ.1.1 spike pseudovirus
Protocol: as §1

[6] = target: SARS-CoV-2 Omicron XBB spike pseudovirus
Protocol: as §1

[7] = target: SARS-CoV-2 early D614G spike pseudovirus
Protocol: as §1

B1: BD56-1441 (protein)
chain 1: EVQLVESGGGLVQPGGSLRLSCAASGFTFSSYDMHWVRQATGKGLEWVSVIGTAGDTYYSGSVKGRFTISRENAKNSVYLQMNSLRVGDTAVYYCARGDMIKVRGVTYYYYKMDVWGQGTTVTVSS
chain 2: DIQMTQSPSSLSASVGDRVTITCRASQSISSFLNWYQLKPGKAPKLLIYAAASLQSGVPSRFSGSGSGTDFTLTISSLQPEDFATYYCQQSYSQPEVTFGQGTRLEIK
B1 was tested, and the “pseudovirus neutralization IC50” value [1] was over 10 µg/mL, the “pseudovirus neutralization IC50” value [2] was over 10 µg/mL and the “pseudovirus neutralization IC50” value [3] was over 10 µg/mL. For the same binder, the “pseudovirus neutralization IC50” value [4] was over 10 µg/mL, the “pseudovirus neutralization IC50” value [5] was over 10 µg/mL and the “pseudovirus neutralization IC50” value [6] was over 10 µg/mL. The “pseudovirus neutralization IC50” value [7] was over 10 µg/mL.

B2: BD56-1474 (protein)
chain 1: QVQLVQSGAEVKKPGASVKVSCKASGYTFTNYYMHWVRQAPGQGLEWMGIINPSDGSTNYAQKSQGRVTMTRDTSTSTVYLELSSLTSEDTALYYCARSMYSTSSEGYYYYYYMDIWGKGTTVTVSS
chain 2: QSALTQPASVSGSPGQSITISCTGTNSDVGVYNYVSWYQQHPGKAPKLMMYDVGKRPSGVSSRFSGSKSVNTASLTISGLQAEDEADYYCSSWTSSSTHVVFGGGTRLTVL
In the case of B2, the “pseudovirus neutralization IC50” value [1] is reported as over 10 µg/mL, the “pseudovirus neutralization IC50” value [2] is reported as 3.19 µg/mL and the “pseudovirus neutralization IC50” value [3] is reported as over 10 µg/mL. For the same binder, the “pseudovirus neutralization IC50” value [4] was over 10 µg/mL, the “pseudovirus neutralization IC50” value [5] was over 10 µg/mL and the “pseudovirus neutralization IC50” value [6] was over 10 µg/mL. For the same binder, the “pseudovirus neutralization IC50” value [7] was 0.00272 µg/mL.

B3: BD56-1464 (protein)
chain 1: QLQLVESGGGVVQPGRSLRLSCAASGFTFSRFGMNWVRQAPGKGLEWVAVIWYDGTKRYYGDSVKGRFTITRDTSKTTLHLQMNSLRVEDTAVYYCARSLTYFDVLTGSERFDAFDVWGQGTMVTVSS
chain 2: DIQMTQSPSTLSASVGDRVTITCRASQSISRWLAWYQQKPGKAPKLLIYEASTLESGVPSRFSGSGSGTEFTLTISSLQPDDFATYYCQQYNTSSYTFGQGTKLEIK
With B3 the “pseudovirus neutralization IC50” value [1] was over 10 µg/mL, the “pseudovirus neutralization IC50” value [2] was over 10 µg/mL and the “pseudovirus neutralization IC50” value [3] was over 10 µg/mL. The “pseudovirus neutralization IC50” value [4] was over 10 µg/mL, the “pseudovirus neutralization IC50” value [5] was over 10 µg/mL and the “pseudovirus neutralization IC50” value [6] was over 10 µg/mL. For the same binder, the “pseudovirus neutralization IC50” value [7] was 0.144 µg/mL.

B4: BD56-1458 (protein)
chain 1: EVQLVESGGGLVQPGRSLRLSCAASGLTFDDYAMHWVRQAPGKGLEWVSGVSWNSGTIGYADSVKGRFIIIRDNAKNSLYLQMNSLRAEDTALYYCGKDIGYGDYVSGGVHYWGRGTPVTVSS
chain 2: QSALTQPASVSGSPGQSITISCTGTSSDVGGYNSVSWYQQHPGKAPKLMLYDVTKRPSGVSNRFSGSKSGNTASLTISGLQAEDEADYYCSSYTSTSTYVFGTGTRVTVL
With B4 the “pseudovirus neutralization IC50” value [1] was 0.0882 µg/mL, the “pseudovirus neutralization IC50” value [2] was 0.108 µg/mL and the “pseudovirus neutralization IC50” value [3] was 0.0956 µg/mL. For the same binder, the “pseudovirus neutralization IC50” value [4] was over 10 µg/mL, the “pseudovirus neutralization IC50” value [5] was over 10 µg/mL and the “pseudovirus neutralization IC50” value [6] was over 10 µg/mL. The “pseudovirus neutralization IC50” value [7] was 0.0682 µg/mL.

B5: BD56-1448 (protein)
chain 1: EVQLVESGGGLVKPGGSLRLSCAASGFSFSDAWMNWVRQAPGKGLEWVGRIKNKIDDATTDYAAPVNGRFSISRDDSKSTLYLQMNSLKTEDTAVYYCATGVDIVVMVYVDDAFDIWGQGTMVTVSS
chain 2: SSELTQDPAVSVALGQTVRITCQGDSLRNYYASWYQQKPGQAPVLVIYGKNNRPSGIPDRFSGSSSRNVASLTITGAQAEDEADYYCNSRDSSGNHVVFGGGTKLTVL
In the case of B5, the “pseudovirus neutralization IC50” value [1] is reported as over 10 µg/mL, the “pseudovirus neutralization IC50” value [2] is reported as over 10 µg/mL and the “pseudovirus neutralization IC50” value [3] is reported as over 10 µg/mL. The “pseudovirus neutralization IC50” value [4] was over 10 µg/mL, the “pseudovirus neutralization IC50” value [5] was over 10 µg/mL and the “pseudovirus neutralization IC50” value [6] was over 10 µg/mL. For the same binder, the “pseudovirus neutralization IC50” value [7] was over 10 µg/mL.

B6: BD56-1473 (protein)
chain 1: EVQLVESGGGLVQPGRSLRLSCAASGFTFEDYAMHWVRHAPGLGLEWVSGIDWNGGVIDYADSVRGRFIISRDNAKNSLYLQMRSLRVEDTALYYCAKDIGKIVDFYGMDVWGQGTTVTVSS
chain 2: QSALTQPASVSGSPGQSITISCTGTSSDVGSYNYVSWYQQHPGKAPKLMIYDVRNRPSGVSNRFSGSKSGTTASLTISGLQAEDEADYYCSSYTNSSIVVFGGGTKLTVL
B6 was tested, and the “pseudovirus neutralization IC50” value [1] was 0.029 µg/mL, the “pseudovirus neutralization IC50” value [2] was 0.033 µg/mL and the “pseudovirus neutralization IC50” value [3] was 0.0247 µg/mL. The “pseudovirus neutralization IC50” value [4] was 0.489 µg/mL, the “pseudovirus neutralization IC50” value [5] was over 10 µg/mL and the “pseudovirus neutralization IC50” value [6] was over 10 µg/mL. The “pseudovirus neutralization IC50” value [7] was 0.00374 µg/mL.
